As a reminder, the IC50 is the concentration needed to halve the response being measured. A lower IC50 goes with greater potency in that assay.

29 molecules from patent publication US20170253607A1 can be followed below.

The target of one series is HIV-1 PR (Human immunodeficiency virus type 1 group M subtype B, UniProt P04585). Kind of series: HIV-protease inhibitory activity assay (FRET peptide substrate). It counts as biochemical. To be noted: Test Example 1.
Series [1] can be described thus: Protein binding test (equilibrium dialysis, unbound ratio fu in serum). To be noted: rat serum, equilibrium dialysis 24 hours, 37° C., 2 μg/mL. The series is classed as in vitro ADME.
Series [2] can be described thus: Evaluation of total body clearance (CLtot), intravenous administration. As to conditions: rat (SD), intravenous administration 0.5-10 mg/kg; CLtot = dose/AUC. It counts as in vivo, Sprague-Dawley (SD).

On HIV-1 PR, `COc1ccc(S(=O)(=O)N(CC(C)C)C[C@@H](O)[C@H](Cc2ccc(OCc3cc(F)ccc3-c3sc4c(c3C(=O)O)CC(C)(C)CC4)cc2)NC(=O)O[C@H]2CO[C@@]3(C)OCC[C@@H]23)cc1` registered an IC50 of 1.76 nM. In series [1], the rat_fu is recorded as less than 0.1%. In series [2], this molecule gave a rat_CLt of 1.09 mL/min/kg.
Take `COc1ccc(S(=O)(=O)N(CC(C)C)C[C@@H](O)[C@H](Cc2ccc(N(C)Cc3ccccc3-c3sc4c(c3C(=O)O)CC(C)(C)CC4)cc2)NC(=O)O[C@H]2CO[C@@]3(C)OCC[C@@H]23)cc1`: the IC50 at HIV-1 PR was 2.01 nM. The rat_fu in series [1] is on record as less than 0.1%. In addition, in series [2], the rat_CLt turned out to be 2.28 mL/min/kg.
On HIV-1 PR, `COc1ccc(S(=O)(=O)N(CC(C)C)C[C@@H](O)[C@H](Cc2ccc(NCc3cc(C(F)(F)F)ccc3-c3sc4c(c3C(=O)O)CC(C)(C)CC4)cc2)NC(=O)O[C@H]2CO[C@@]3(C)OCC[C@@H]23)cc1` came in with an IC50 of 2.39 nM. Besides, in series [1], the rat_fu is given as less than 0.1%. Besides, in series [2], the rat_CLt came out at 0.455 mL/min/kg.
In turn, `COc1ccc(S(=O)(=O)N(CC(C)C)C[C@@H](O)[C@H](Cc2ccc(N(C)C3CN(c4ccccc4-c4sc5c(c4C(=O)O)CC(C)(C)CC5)C3)cc2)NC(=O)O[C@H]2CO[C@@]3(C)OCC[C@@H]23)cc1` displayed an IC50 on HIV-1 PR of 3.56 nM. Also, in series [1], the rat_fu is less than 0.1%. Further, the rat_CLt in series [2] was determined as 1.1 mL/min/kg.
For `COc1ccc(S(=O)(=O)N(CC(C)C)C[C@@H](O)[C@H](Cc2ccc(NCc3ccccc3-c3sc4c(c3C(=O)O)CC(C)(C)CC4)cc2)NC(=O)O[C@H]2CO[C@@]3(C)OCC[C@@H]23)cc1` the same measures were 2.57 nM, less than 0.1% and 1.71 mL/min/kg.
The corresponding values for `COc1ccc(S(=O)(=O)N(CC(C)C)C[C@@H](O)[C@H](Cc2ccc(NCc3ccccc3-n3nc4c(c3C(=O)O)CC(C)(C)CC4)cc2)NC(=O)O[C@H]2CO[C@@]3(C)OCC[C@@H]23)cc1` are 1.96 nM, less than 0.1% and 0.585 mL/min/kg.
For the molecule `COc1ccc(S(=O)(=O)N(CC(C)C)C[C@@H](O)[C@H](Cc2ccc(OCc3ccccc3-c3sc4c(c3C(=O)O)CC(C)(C)CC4=O)cc2)NC(=O)O[C@H]2CO[C@@]3(C)OCC[C@@H]23)cc1`, the IC50 on HIV-1 PR is 0.94 nM. Further, the rat_fu in series [1] is listed as less than 0.1%. Besides, the rat_CLt in series [2] stood at 1.48 mL/min/kg.
With `COc1ccc(S(=O)(=O)N(CC(C)C)C[C@@H](O)[C@H](Cc2ccc(OCc3ccccc3-c3sc4ccccc4c3C(=O)O)cc2)NC(=O)O[C@H]2CO[C@@]3(C)OCC[C@@H]23)cc1`, the IC50 against HIV-1 PR came to 1.14 nM. In addition, the rat_fu in series [1] is given as less than 0.1%. In addition, the rat_CLt in series [2] was found to be 7.74 mL/min/kg.
As to `COc1ccc(S(=O)(=O)N(CC(C)C)C[C@@H](O)[C@H](Cc2ccccc2)NC(=O)O[C@H]2CO[C@@]3(CNCc4ccccc4-c4sc5c(c4C(=O)O)CC(C)(C)CC5)OCC[C@@H]23)cc1`, on HIV-1 PR, the 50% inhibitory concentration (IC50) is 2.11 nM. Moreover, the rat_fu in series [1] is less than 0.1%. In addition, the rat_CLt in series [2] was 3.87 mL/min/kg.
For `COc1ccc(S(=O)(=O)N(CC(C)C)C[C@@H](O)[C@H](Cc2ccc(OCc3cc4c(cc3-c3sc5c(c3C(=O)O)CC(C)(C)CC5)C(C)(C)CCC4(C)C)cc2)NC(=O)O[C@H]2CO[C@@]3(C)OCC[C@@H]23)cc1` the same measures were 40.2 nM, less than 0.1% and 2.02 mL/min/kg.
As for `COc1ccc(S(=O)(=O)N(CC(C)C)C[C@@H](O)[C@H](Cc2ccc(OC3CN(c4ccccc4-c4sc5c(c4C(=O)O)CC(C)(C)CC5)C3)cc2)NC(=O)O[C@H]2CO[C@@]3(C)OCC[C@@H]23)cc1`, at HIV-1 PR, the IC50 turned out to be 4.02 nM. Also, the rat_fu in series [1] is recorded as less than 0.1%. Also, the rat_CLt in series [2] is recorded as 0.07 mL/min/kg.
The corresponding values for `COc1ccc(S(=O)(=O)N(CC(C)C)C[C@@H](O)[C@H](Cc2ccc(Oc3ccc(-c4sc5c(c4C(=O)O)CC(C)(C)CC5)c(C)c3)cc2)NC(=O)O[C@H]2CO[C@@]3(C)OCC[C@@H]23)cc1` are 2.22 nM, less than 0.1% and 0.784 mL/min/kg.
The corresponding values for `COc1ccc(S(=O)(=O)N(CC(C)C)C[C@@H](O)[C@H](Cc2ccc(OCc3cc4ccccc4cc3-c3sc4c(c3C(=O)O)CC(C)(C)CC4)cc2)NC(=O)O[C@H]2CO[C@@]3(C)OCC[C@@H]23)cc1` are 7.46 nM, less than 0.1% and 0.117 mL/min/kg.
At HIV-1 PR, `Cc1cc(Oc2ccc(C[C@H](NC(=O)O[C@H]3CO[C@@]4(C)OCC[C@@H]34)[C@H](O)CN(CC(C)C)S(=O)(=O)c3ccc4c(c3)OCO4)cc2)ccc1-c1sc2c(c1C(=O)O)CC(C)(C)CC2` showed an IC50 of 3.99 nM. Further, the rat_fu in series [1] is on record as less than 0.1%. For the same molecule, in series [2], the rat_CLt turned out to be 1.5 mL/min/kg.
As for `COc1ccc(S(=O)(=O)N(CC2CCCC2)C[C@@H](O)[C@H](Cc2ccc(OCc3ccccc3-c3sc4c(c3C(=O)O)CC(C)(C)CC4)cc2)NC(=O)O[C@H]2CO[C@@]3(C)OCC[C@@H]23)cc1`, the IC50 at HIV-1 PR was determined as 2.18 nM. Also, in series [1], the rat_fu is recorded as less than 0.1%. Moreover, the rat_CLt in series [2] amounted to 0.933 mL/min/kg.
The corresponding values for `COc1ccc(S(=O)(=O)N(CC(C)C)C[C@@H](O)[C@H](Cc2ccc(OC[C@@H]3COCC[C@@H]3c3sc4c(c3C(=O)O)CC(C)(C)CC4)cc2)NC(=O)O[C@H]2CO[C@@]3(C)OCC[C@@H]23)cc1` are 1.98 nM, less than 0.1% and 0.41 mL/min/kg.
`COc1ccc(S(=O)(=O)N(CC(C)C)C[C@@H](O)[C@H](Cc2ccc(NC(=O)c3ccccc3-c3sc4c(c3C(=O)O)CC(C)(C)CC4)cc2)NC(=O)O[C@H]2CO[C@@]3(C)OCC[C@@H]23)cc1` gave an IC50 on HIV-1 PR of 2.22 nM. The rat_fu in series [1] is listed as less than 0.1%. This molecule also came in with a rat_CLt in series [2] of 2.47 mL/min/kg.
With `COc1ccc(S(=O)(=O)N(CC(C)C)C[C@@H](O)[C@H](Cc2ccc(OCc3ccccc3-c3ccc(Cn4nc5c(c4C(=O)O)CC(C)(C)CC5)cc3)cc2)NC(=O)O[C@H]2CO[C@@]3(C)OCC[C@@H]23)cc1`, on HIV-1 PR, the IC50 worked out at 2.86 nM. For the same molecule, the rat_fu in series [1] was less than 0.1%. Also, the rat_CLt in series [2] turned out to be 3.97 mL/min/kg.
Consider `COc1ccc(S(=O)(=O)N(CC(C)C)C[C@@H](O)[C@H](Cc2ccc(OCc3cc(OC)ccc3-c3sc4c(c3C(=O)O)CC(C)(C)CC4)cc2)NC(=O)O[C@H]2CO[C@@]3(C)OCC[C@@H]23)cc1`, for which the IC50 on HIV-1 PR turned out to be 1.32 nM. Besides, the rat_fu in series [1] was less than 0.1%. Besides, in series [2], the rat_CLt is 0.362 mL/min/kg.
On HIV-1 PR, `COc1ccc(S(=O)(=O)N(CC(C)C)C[C@@H](O)[C@H](Cc2ccc(NC[C@@H]3CCCC[C@H]3c3sc4c(c3C(=O)O)CC(C)(C)CC4)cc2)NC(=O)O[C@H]2CO[C@@]3(C)OCC[C@@H]23)cc1` gave an IC50 of 3.26 nM. Besides, the rat_fu in series [1] is reported as less than 0.1%. The rat_CLt in series [2] is listed as 0.868 mL/min/kg.
For `COc1ccc(S(=O)(=O)N(CC(C)C)C[C@@H](O)[C@H](Cc2ccccc2)NC(=O)O[C@H]2CO[C@@]3(COC(=O)NCc4ccc(-c5sc6c(c5C(=O)O)CC(C)(C)CC6)cc4)OCC[C@@H]23)cc1` the same measures were 5.25 nM, less than 0.1% and 4.34 mL/min/kg.
As for `COc1ccc(S(=O)(=O)N(CC(C)C)C[C@@H](O)[C@H](Cc2ccc(OCc3cc(C(F)(F)F)ccc3-c3sc4c(c3C(=O)O)CC(C)(C)CC4)cc2)NC(=O)O[C@H]2CO[C@@]3(C)OCC[C@@H]23)cc1`, at HIV-1 PR, the IC50 was 3.32 nM. For the same molecule, the rat_fu in series [1] is less than 0.1%. The same molecule had a rat_CLt in series [2] of 0.285 mL/min/kg.
For `COc1ccc(S(=O)(=O)N(CC(C)C)C[C@@H](O)[C@H](Cc2ccc(OCC3CCCCC3c3sc4c(c3C(=O)O)CC(C)(C)CC4)cc2)NC(=O)O[C@H]2CO[C@@]3(C)OCC[C@@H]23)cc1` (single isomer, unassigned) [I-10-2] the same measures were 4.47 nM, less than 0.1% and 0.092 mL/min/kg.
The molecule `CC(C)CN(C[C@@H](O)[C@H](Cc1ccccc1)NC(=O)O[C@H]1CO[C@@]2(C)OCC[C@@H]12)S(=O)(=O)c1ccc2nc(NCc3ccccc3-c3sc4c(c3C(=O)O)CC(C)(C)CC4)sc2c1` displayed an IC50 against HIV-1 PR of 3.35 nM. In series [1], the rat_fu is recorded as less than 0.1%. The molecule also gave a rat_CLt in series [2] of 0.324 mL/min/kg.
For `COc1ccc(S(=O)(=O)N(CC(C)C)C[C@@H](O)[C@H](Cc2ccccc2)NC(=O)O[C@H]2CO[C@@]3(CNCCCc4sc5c(c4C(=O)O)CC(C)(C)CC5)OCC[C@@H]23)cc1`, the IC50 against HIV-1 PR was 1.02 nM. Also, the rat_fu in series [1] is on record as less than 0.1%. For the same molecule, the rat_CLt in series [2] came to 1.16 mL/min/kg.
As to `COc1ccc(S(=O)(=O)N(CC(C)C)C[C@@H](O)[C@H](Cc2ccc(OCc3ccc4ccccc4c3-c3sc4c(c3C(=O)O)CC(C)(C)CC4)cc2)NC(=O)O[C@H]2CO[C@@]3(C)OCC[C@@H]23)cc1`, the IC50 against HIV-1 PR is 4.12 nM. Also, in series [1], the rat_fu is recorded as less than 0.1%. For the same molecule, the rat_CLt in series [2] is 0.117 mL/min/kg.
The corresponding values for `COc1ccc(S(=O)(=O)N(CC(C)C)C[C@@H](O)[C@H](Cc2ccc(OCc3cccc(C)c3-c3sc4c(c3C(=O)O)CC(C)(C)CC4)cc2)NC(=O)O[C@H]2CO[C@@]3(C)OCC[C@@H]23)cc1` are 1.79 nM, less than 0.1% and 0.363 mL/min/kg.
As to `CC1(C)CCc2sc(-c3ccccc3COc3ccc(C[C@H](NC(=O)O[C@H]4CO[C@@]5(C)OCC[C@@H]45)[C@H](O)CN(CC4CCCC4)S(=O)(=O)c4ccc5c(c4)CCO5)cc3)c(C(=O)O)c2C1`, the IC50 against HIV-1 PR worked out at 5.59 nM. Moreover, in series [1], the rat_fu was less than 0.1%. For the same molecule, the rat_CLt in series [2] is given as 1.4 mL/min/kg.
`COc1ccc(S(=O)(=O)N(CC(C)C)C[C@@H](O)[C@H](Cc2ccc(N3CC[C@@H](Oc4ccc(-c5sc6c(c5C(=O)O)CC(C)(C)CC6)c(C)c4)C3)cc2)NC(=O)O[C@H]2CO[C@@]3(C)OCC[C@@H]23)cc1`: at HIV-1 PR, the IC50 was found to be 6.83 nM. In series [2], this molecule yielded a rat_CLt of 1.78 mL/min/kg.
